Compound potency records, mixed from different reports. Data source: NIAID ChemDB in PubChem.

All rows: tests in culture; agent: Mycobacterium tuberculosis

Neighbouring rows are from separate reports. ECn is the concentration giving n% inhibition of infection, replication or growth. MIC50, MIC90 and the like: level of inhibition, or share of isolates inhibited. MIC bound comes from a single tested concentration. "inactive" is the filed call at that dose; no cut-off is given. An empty or dashed field is not shown. a–b is a range or a potency band. Percent inhibition refers to the dose given; in toxicity tests it is the harm to the cells.

structure,endpoint,read by,dose,strain or isolate,value
CC1=C/C(=N\NC(=O)c2ccc[n+](C)c2)CC(C)(C)C1.Cc1ccc(S(=O)(=O)[O-])cc1,inhibition,BACTEC,12.5 µg/mL,H37Rv,27%
S=c1oc(-c2ccncc2)nn1CN1CCSCC1,MIC,-,-,H37Rv,40 µg/mL
O=C(NN1C(=O)CSC1c1ccc(O)cc1O)c1ncc2cc(C(F)(F)F)ccc2n1,MIC,visual reading,-,H37Rv,1.18 µM
CNn1cc(C(=O)O)c(=O)c2cc(F)c(N3CCN(C)CC3)cc21,MIC90,-,-,-,>4 µg/mL
O=C1C(O)C(O)C(O)C(O)C1O,MIC bound,BACTEC,-,H37Rv,>12.8 µg/mL
Cc1c(NC(=O)C(C)Sc2nnc(-c3ccco3)n2-c2ccccc2)c(=O)n(-c2ccccc2)n1C,MIC,resazurin,-,H37Rv,>6.25 µg/mL
Cc1ccc(C(=O)CC(N/N=C(\N)c2ccccn2)c2ccncc2)cc1,MIC,-,-,H37Rv,8 µg/mL
Cc1c(Cl)cccc1NC(=O)N/N=C/c1ccccc1O,EC50,-,-,-,>6.25 µg/mL
CC(=O)/C(N=Nc1ccc(-c2nnc(Nc3ccc(Cl)cc3)s2)cc1)=C(\C)O,inhibition,BACTEC,6.25 µg/mL,H37Rv,15%
C[C@@H]1CC[C@@]2(OC1)O[C@H]1C[C@H]3[C@@H]4CC=C5C[C@@H](O[C@@H]6O[C@H](CO)[C@@H](O[C@@H]7O[C@@H](C)[C@H](O[C@@H]8O[C@@H](C)[C@H](O)[C@@H](O)[C@H]8O)[C@@H](O)[C@H]7O)[C@H](O)[C@H]6O[C@@H]6O[C@@H](C)[C@H](O)[C@@H](O)[C@H]6O)CC[C@]5(C)[C@H]4CC[C@]3(C)[C@H]1[C@@H]2C,MIC,BACTEC,-,H37Rv,≥12.5 µg/mL
CC(=O)Nc1ccc(NC(=O)N/N=C/c2cccc([N+](=O)[O-])c2)cc1,EC50,-,-,-,<1.56 µg/mL
CCCCCCCCCC(=O)C1=C(O)[C@H](CCO)NC1=O,MIC,-,-,H37Rv (ATCC 27294),5 µg/mL
CC1CCCN(Cn2nc(-c3ccncc3)oc2=O)C1,MIC,-,-,H37Rv,1.25 µg/mL
COC(=O)C1=C(N)SS/C1=C\[N+](=O)[O-],MIC,BACTEC,-,H37Rv,≥12.5 µg/mL
O=c1oc(-c2ccncc2)nn1CN1CCCCC1,MIC,-,-,H37Rv,2.5 µg/mL
COc1cc(C)c2c(=O)c3c(oc2c1)C(=O)c1c(O)c(OC)cc(O)c1C3=O,MIC,-,-,PZA-R,12.5 µg/mL
CCCCCN(C(=O)COc1cc2c(O)c3c(O)c(C)c4c(c13)C(=O)[C@@](C)(O/C=C/[C@H](OC)[C@@H](C)[C@@H](OC(C)=O)[C@H](C)[C@H](O)[C@H](C)[C@@H](O)[C@@H](C)/C=C/C=C(/C)C(=O)N2)O4)N(C)C,MIC,-,-,H37Rv,0.18 µg/mL
CC1=CC[C@]2(C)C[C@H](O)[C@@]3(C)[C@H](C(C(C)C)=C[C@@H]3O)[C@H]2CC1,EC50,resazurin,-,H37Rv,>6.25 µg/mL
CCC1=C(C)C2=NC1=CC1=NC(=C(CC)/C1=C/O)C=C1N=C3C(=C1C)C(=O)C(C(=O)OC)C3=C1NC(=C2)C(C)C1CCC(=O)OC,MIC bound,BACTEC,-,H37Rv,>12.5 µg/mL
Cc1c(NC(=O)C(C)Sc2nnc(-c3ccco3)n2C2CCCCC2)c(=O)n(-c2ccccc2)n1C,MIC,resazurin,-,H37Rv,>6.25 µg/mL
N/C(=N\NC(CC(=O)c1cccc(Cl)c1)c1cccnc1)c1ccccn1,MIC,-,-,H37Rv,8 µg/mL
O=C(NN1C(=O)CSC1c1ccccc1Br)c1ncc2cc(C(F)(F)F)ccc2n1,MIC,visual reading,-,H37Rv,2.32 µM
Cc1cccc(C(=O)CC(N/N=C(\N)c2ccccn2)c2ccccn2)c1,MIC,-,-,H37Rv,2 µg/mL
O=C(c1ccccc1)c1c(CC(O)c2cccnc2)n(C(=O)c2ccccc2)c2ccccc12,inhibition,BACTEC,12.5 µg/mL,H37Rv,16%
Cc1c(NC(=O)CSc2nnc(-c3ccco3)n2-c2ccc(Br)cc2)c(=O)n(-c2ccccc2)n1C,inhibition,resazurin,6.25 µg/mL,H37Rv,3%
CO[C@H]1/C=C/O[C@@]2(C)Oc3c(C)c(O)c4c(O)c(cc(OCC(=O)NNc5ccccc5)c4c3C2=O)NC(=O)/C(C)=C\C=C\[C@H](C)[C@H](O)[C@@H](C)[C@@H](O)[C@@H](C)[C@H](OC(C)=O)[C@@H]1C,MIC,-,-,H37Rv,0.037 µg/mL
CN1CCN(CCCN2c3ccccc3Sc3ccc(C(F)(F)F)cc32)CC1,MIC,-,-,H37Rv,5 µg/mL
CO[C@H]1/C=C/O[C@@]2(C)Oc3c(C)c(O)c4c(O)c(c5[nH]c(-c6ccccc6)nc5c4c3C2=O)NC(=O)/C(C)=C\C=C\[C@H](C)[C@H](O)[C@@H](C)[C@@H](O)[C@@H](C)[C@H](OC(C)=O)[C@@H]1C,inhibition,resazurin,6.25 µg/mL,H37Rv,101%
CCn1cc(C(=O)O)c(=O)c2cc(F)c(-n3cccc3)cc21,MIC90,-,-,-,>4 µg/mL
CCN(CC)N(C)C(=O)COc1cc2c(O)c3c(O)c(C)c4c(c13)C(=O)[C@@](C)(O/C=C/[C@H](OC)[C@@H](C)[C@@H](OC(C)=O)[C@H](C)[C@H](O)[C@H](C)[C@@H](O)[C@@H](C)/C=C/C=C(/C)C(=O)N2)O4,MIC,-,-,H37Rv,0.37 µg/mL
O=C(N/N=C/c1ccc(Cl)cc1Cl)c1ccccc1SSc1ccccc1C(=O)N/N=C/c1ccc(Cl)cc1Cl,MIC bound,BACTEC,-,H37Rv,>12.5 µg/mL
Cc1ccc(C2=NNC(c3cn(-c4ccc(Cl)cc4)nc3-c3ccccc3)C2)o1,MIC,resazurin,-,H37Rv,25 µg/mL
N/C(=N\NC(CC(=O)c1ccc(Cl)c(Cl)c1)c1cccnc1)c1ccccn1,MIC,-,-,H37Rv,16 µg/mL
Cc1ccc(S(=O)(=O)N/N=C2\CC(C)(C)OC2(C)C)cc1,inhibition,BACTEC,12.5 µg/mL,H37Rv,-2%
O=c1oc(-c2ccncc2)nn1CN1CCSCC1,MIC,-,-,H37Rv,2.5 µg/mL
Cc1nc(/C=C2\C(=O)C=Cc3ccccc32)c(O)o1,MIC bound,BACTEC,-,H37Rv,>12.5 µg/mL
Clc1ccc(-c2nn(-c3ccc(Cl)cc3)cc2C2CC(c3ccc(-c4ccccc4)cc3)=NN2)cc1,MIC,resazurin,-,H37Rv,50 µg/mL
Cc1cc(NC(=O)NC(=O)c2ccccc2NC(=O)C(C)N)ccc1Oc1ncc(Br)cn1.Cl,MIC bound,BACTEC,-,H37Rv,>12.5 µg/mL
Cc1ccc(-c2nn(-c3ccc(Cl)cc3)cc2C2CC(c3ccc(-c4ccccc4)cc3)=NN2)cc1,MIC,resazurin,-,H37Rv,50 µg/mL
CN(Cc1cc(Br)cc(Br)c1N)C1CCCCC1,MIC,-,-,10 isolates,6.25–12.5 µg/mL
CO[C@H]1/C=C/O[C@@]2(C)Oc3c(C)c(O)c4c(O)c(cc(OCC(=O)N5CCCC5)c4c3C2=O)NC(=O)/C(C)=C\C=C\[C@H](C)[C@H](O)[C@@H](C)[C@@H](O)[C@@H](C)[C@H](OC(C)=O)[C@@H]1C,MIC,-,-,H37Rv,0.01 µg/mL
Cc1c(Cl)cccc1NC(=O)N/N=C/c1cccc([N+](=O)[O-])c1,EC50,-,-,-,<6.25 µg/mL
CN(C)c1ccc(C(C2=C(O)c3ccccc3C(=O)C2=O)C2=C(O)c3ccccc3C(=O)C2=O)cc1,MIC,BACTEC,-,H37Rv,≥12.8 µg/mL
N/C(=N\NC(CC(=O)c1ccccc1)c1ccccn1)c1ccccn1,MIC,-,-,H37Rv,4 µg/mL
CN1CCN(c2cc3c(cc2F)c(=O)c(C(=O)O)cn3-c2ccc(F)cc2)CC1,MIC90,-,-,-,>4 µg/mL
CC1=CC[C@]2(C)CC(=O)[C@]3(C)C(=O)C=C(C(C)C)[C@@H]3[C@H]2CC1,inhibition,resazurin,6.25 µg/mL,H37Rv,9%
Nc1cc2ncnn2c(SCC(=O)N/N=C/C(Br)=C/c2ccccc2)n1,inhibition,resazurin,6.25 µg/mL,H37Rv,40%
Nc1ccc(C2SCC(=O)N2NC(=O)c2ncc3cc(C(F)(F)F)ccc3n2)c(N)c1,MIC,visual reading,-,H37Rv,1.6 µM
O=c1oc(-c2ccncc2)nn1CN1CCc2ccccc2C1,MIC,-,-,H37Rv,1.25 µg/mL
C[C@@H]1CN(c2c(F)c(N)c3c(=O)c(C(=O)O)cn(C4CC4)c3c2F)C[C@H](C)N1,MBC,-,-,-,0.5 µg/mL
COc1ccc(-c2nn(-c3ccc(Cl)cc3)cc2C2CC(c3ccc(-c4ccccc4)cc3)=NN2)cc1,MIC,resazurin,-,H37Rv,6.25 µg/mL
COC(=O)C1c2ccccc2CC(=O)N1NC(=O)c1ccccc1,inhibition,BACTEC,12.5 µg/mL,H37Rv,2%
N/C(=N\NC(CC(=O)c1ccc(-c2ccccc2)cc1)c1ccncc1)c1ccccn1,MIC,-,-,H37Rv,16 µg/mL
Cc1c(NC(=O)CSc2nnc(-c3ccco3)n2-c2ccc(F)cc2)c(=O)n(-c2ccccc2)n1C,inhibition,resazurin,6.25 µg/mL,H37Rv,inactive
CC(=O)/C(N=Nc1ccc(-c2nnc(Nc3ccc(C)cc3)s2)cc1)=C(\C)O,MIC,BACTEC,-,H37Rv,>6.25 µg/mL
N/C(=N\NC(CC(=O)c1ccc(Cl)c(Cl)c1)c1ccccn1)c1ccccn1,MIC,-,-,H37Rv,2 µg/mL
Nc1ccc(-c2nnc(Nc3ccccc3)s2)cc1,inhibition,BACTEC,6.25 µg/mL,H37Rv,0%
Cc1c(NC(=O)CSc2nnc(-c3ccco3)n2-c2ccccc2)c(=O)n(-c2ccccc2)n1C,inhibition,resazurin,6.25 µg/mL,H37Rv,5%
CC1CCCCN1n1nc(-c2ccncc2)oc1=O,MIC,-,-,H37Rv,2.5 µg/mL
CCOC(=O)C1CCC(C(=O)OCC)N1C(=O)COc1cc2c(O)c3c(O)c(C)c4c(c13)C(=O)[C@@](C)(O/C=C/[C@H](OC)[C@@H](C)[C@@H](OC(C)=O)[C@H](C)[C@H](O)[C@H](C)[C@@H](O)[C@@H](C)/C=C/C=C(/C)C(=O)N2)O4,MIC,-,-,H37Rv,0.37 µg/mL
CC(=O)/C(N=Nc1ccc(-c2nnc(NCc3ccccc3)s2)cc1)=C(\C)O,inhibition,BACTEC,6.25 µg/mL,H37Rv,0%
Cc1c(Cl)cccc1NC(=O)N/N=C/c1ccc([N+](=O)[O-])cc1,EC50,-,-,-,>6.25 µg/mL
NC(=S=O)C(F)(F)C(F)(F)C(F)(F)F,MIC bound,resazurin,-,-,>6.25 µg/mL
Cc1c(NC(=O)C(C)Sc2nnc(-c3ccco3)n2-c2ccc(Cl)cc2)c(=O)n(-c2ccccc2)n1C,inhibition,resazurin,6.25 µg/mL,H37Rv,1%
S=c1oc(-c2ccncc2)nn1CN1CCc2ccccc2C1,MIC,-,-,H37Rv,40 µg/mL
CC1=NN(c2ccc([N+](=O)[O-])cc2)C(=O)C1[N+](=O)[O-],MIC bound,BACTEC,-,H37Rv,>12.8 µg/mL
CC1CCCCN1Cn1nc(-c2ccncc2)oc1=S,MIC,-,-,H37Rv,40 µg/mL
COc1ccc(Nc2nnc(-c3ccc(N)cc3)s2)cc1,inhibition,BACTEC,6.25 µg/mL,H37Rv,3%
Cc1ccc2nc(-c3ccc(NC(=O)c4ccc(N)cc4)c(S(=O)(=O)O)c3)sc2c1,inhibition,BACTEC,6.25 µg/mL,H37Rv,0%
CO[C@H]1/C=C/O[C@@]2(C)Oc3c(C)c(O)c4c(O)c(c(/C=N/N5CCN(C)CC5)c(O)c4c3C2=O)NC(=O)/C(C)=C\C=C\[C@H](C)[C@H](O)[C@@H](C)[C@@H](O)[C@@H](C)[C@H](OC(C)=O)[C@@H]1C,MIC,broth dilution / visual reading,-,CSU87,>32 µg/mL
O=C(Cc1ccc(Cl)cc1)N/N=C/c1ccc([N+](=O)[O-])s1,MIC bound,BACTEC,-,H37Rv,≤12.5 µg/mL
COc1ccc(Nc2nnc(-c3ccc(NC(=S)Nc4ccccc4)cc3)s2)cc1,inhibition,BACTEC,6.25 µg/mL,H37Rv,5%
CC1(C)CCCC2(C)C(C(=O)O)C3CCC45OC3(CC12)OC(=O)C4C1(C)CCCC(C)(C)C1CC5=O,MIC bound,BACTEC,-,H37Rv,>12.8 µg/mL
O=C(NN1C(=O)CSC1c1ccccc1Cl)c1ncc2cc(C(F)(F)F)ccc2n1,MIC,visual reading,-,H37Rv,3.35 µM

A second listing of 6 rows from above:

structure,endpoint,read by,dose,strain or isolate,value
CN1CCN(c2cc3c(cc2F)c(=O)c(C(=O)O)cn3-c2ccc(F)cc2)CC1,MIC90,-,-,-,>4 µg/mL
CCN(CC)N(C)C(=O)COc1cc2c(O)c3c(O)c(C)c4c(c13)C(=O)[C@@](C)(O/C=C/[C@H](OC)[C@@H](C)[C@@H](OC(C)=O)[C@H](C)[C@H](O)[C@H](C)[C@@H](O)[C@@H](C)/C=C/C=C(/C)C(=O)N2)O4,MIC,-,-,H37Rv,0.37 µg/mL
CN1CCN(CCCN2c3ccccc3Sc3ccc(C(F)(F)F)cc32)CC1,MIC,-,-,H37Rv,5 µg/mL
Nc1cc2ncnn2c(SCC(=O)N/N=C/C(Br)=C/c2ccccc2)n1,inhibition,resazurin,6.25 µg/mL,H37Rv,40%
Cc1ccc2nc(-c3ccc(NC(=O)c4ccc(N)cc4)c(S(=O)(=O)O)c3)sc2c1,inhibition,BACTEC,6.25 µg/mL,H37Rv,0%
Cc1c(NC(=O)C(C)Sc2nnc(-c3ccco3)n2C2CCCCC2)c(=O)n(-c2ccccc2)n1C,MIC,resazurin,-,H37Rv,>6.25 µg/mL